Compound potency records, mixed from different reports. Data source: NIAID ChemDB in PubChem.

An empty or dashed field is not shown. A number after MIC or MFC names an inhibition level or a share of isolates. Neighbouring rows are from separate reports. ECn is the concentration giving n% inhibition of infection, replication or growth. Inhibition is in % at the dose shown (toxicity tests: loss of growth or viability). ICn: concentration for n% inhibition.

compound	protein	strain or isolate	read by	agent	test	cells	dose	measure	result
c1ccc(C2CCN(c3cncc(-c4ccsc4)n3)CC2)cc1	UL97 kinase	-	-	Cytomegalovirus	target	-	1 µM	inhibition	<50%
O=S(=O)([O-])c1ccc2c(O)cc(S(=O)(=O)[O-])cc2c1	-	-	cytopathic effect	Herpes simplex virus	culture	Human conjunctiva cells	5 µg/mL	inhibition	0%
O=c1[nH]c(=O)n([C@@H]2O[C@H](CO)[C@@H](O)[C@@H]2O)cc1/C=C/Br	-	Ohtomo	plaque count	Varicella zoster virus	culture	HELF	0.001 µg/mL	inhibition	100%
COc1ccc2ccc3nc(N)nc(N)c3c2c1	Dihydrofolate reductase	TYPE 2	-	Cryptosporidium parvum	target	-	-	IC50	1.2 µM
CCOc1ccc(-c2cncc(N3CCN(c4ccccc4)CC3)n2)cc1	UL97 kinase	-	-	Cytomegalovirus	target	-	1 µM	inhibition	<50%
COc1cc(NCc2c(Br)sc3nc(N)nc(N)c23)cc(OC)c1OC	Dihydrofolate reductase	TYPE 2	-	Cryptosporidium parvum	target	-	-	IC50	>10 µM
Fc1ccccc1N1CCN(c2cncc(-c3cc(C(F)(F)F)cc(C(F)(F)F)c3)n2)CC1	UL97 kinase	-	-	Cytomegalovirus	target	-	10 µM	inhibition	>15%
O=C(Nc1cc(S(=O)(=O)O)cc2cc(S(=O)(=O)O)cc(O)c12)c1ccccc1	-	TYPE 3	cytopathic effect	Adenovirus	culture	Human embryonic lung cells	50 µg/mL	inhibition	20%
Cc1nc(C)c(N2CCN(c3ccncc3)CC2)nc1-c1cc2ccccc2s1	UL97 kinase	-	-	Cytomegalovirus	target	-	10 µM	inhibition	>15%
C=CCc1ccc(OC)c(OC)c1	-	3000	turbidity	Candida tropicalis	culture	-	-	MIC90	350 µg/mL
Fc1ccc(N2CCCCC2)c(NC(=S)c2ccncc2)c1	PKBgamma	-	kinase activity	-	host protein	-	10 µM	inhibition	7%
O=c1[nH]c(=O)n([C@H]2C[C@H](O)[C@@H](CO)O2)cc1/C=C/Br	-	KANNO	plaque count	Varicella zoster virus	culture	HELF	0.001 µg/mL	inhibition	0%
O=S(=O)([O-])c1cc(NS(=O)(=O)c2ccccc2)c2c(S(=O)(=O)[O-])cc(S(=O)(=O)[O-])cc2c1	-	-	cytopathic effect	Herpes simplex virus	culture	Human conjunctiva cells	5 µg/mL	inhibition	36%
COc1cc(Nc2cncc(-c3cccc(F)c3)n2)cc(OC)c1OC	UL97 kinase	-	-	Cytomegalovirus	target	-	-	IC50	<10 µM
Cc1cn([C@@H]2O[C@H](CO)[C@@H](O)[C@@H]2O)c(=O)[nH]c1=O	-	Ohtomo	plaque count	Varicella zoster virus	culture	HELF	0.01 µg/mL	inhibition	94%
Fc1ccc(-c2cncc(N3CCN(c4ccc(C(F)(F)F)cc4)CC3)n2)cc1	UL97 kinase	-	-	Cytomegalovirus	target	-	-	IC50	<100 µM
O=S(=O)([O-])c1ccc(O)cc1	-	-	cytopathic effect	Herpes simplex virus	culture	Human amnion AV3 cells	10 µg/mL	inhibition	10%
COc1cc(CCCN2CCc3nc(N)nc(N)c3C2)cc(OC)c1OC	Dihydrofolate reductase	TYPE 2	-	Cryptosporidium parvum	target	-	-	IC50	>10 µM
CCOC(=O)/C=C/[C@H](C[C@@H]1CCNC1=O)NC(=O)[C@@H](CC(=O)[C@@H](NC(=O)c1cc(C)on1)C(C)C)Cc1ccc(F)cc1	-	Isolate 20	cytopathic effect / visual reading	Rhinovirus	culture	OHIO HELA-I	-	EC50	<0.01 µg/mL
c1ccc(Oc2ccc(-c3cncc(N4CCN(c5ccccc5)CC4)n3)cc2)cc1	UL97 kinase	-	-	Cytomegalovirus	target	-	-	IC50	<100 µM
C=Cc1cn([C@@H]2O[C@H](CO)[C@@H](O)[C@@H]2O)c(=O)[nH]c1=O	-	OKA	plaque count	Varicella zoster virus	culture	HELF	0.1 µg/mL	inhibition	18%
Nc1nc(N)c2c(ccc3cc(Br)ccc32)n1	Dihydrofolate reductase	TYPE 1	-	Cryptosporidium parvum	target	-	-	IC50	>10 µM
COc1cccc(N2CCN(c3cncc(-c4ccc(C(F)(F)F)cc4)n3)CC2)c1	UL97 kinase	-	-	Cytomegalovirus	target	-	1 µM	inhibition	<50%
O=C(Nc1ccc2c(O)c(N=Nc3ccc(N=Nc4ccc(S(=O)(=O)O)cc4)cc3)c(S(=O)(=O)O)cc2c1)c1ccccc1	-	TYPE 3	cytopathic effect	Adenovirus	culture	Human embryonic lung cells	5 µg/mL	inhibition	10%
CCC(CC)O[C@@H]1C=C(C(=O)O)C[C@H](N)[C@H]1NC(C)=O	-	B/LEE/40	-	Influenza B virus	culture	MDCK	-	EC50	3 µM
c1cncc(-c2cncc(N3CCN(c4cccc5[nH]ccc45)CC3)n2)c1	UL97 kinase	-	-	Cytomegalovirus	target	-	-	IC50	<10 µM
COc1cc(-c2sc3nc(N)nc(N)c3c2C)cc(OC)c1OC	Dihydrofolate reductase	TYPE 1	-	Cryptosporidium parvum	target	-	-	IC50	>10 µM
O=c1[nH]c(=O)n([C@H]2C[C@H](O)[C@@H](CO)O2)cc1I	-	Kawaguchi	plaque count	Varicella zoster virus	culture	HELF	1 µg/mL	inhibition	100%
O=S(=O)(O)c1cc(O)c2c(O)cc(S(=O)(=O)O)cc2c1	-	TYPE 3	cytopathic effect	Adenovirus	culture	Human amnion AV3 cells	5 µg/mL	inhibition	0%
CCO/N=C/c1ccc(OCCC2CCN(c3ccc(Cl)nn3)CC2)cc1	-	6669-CV39 (ICAM-1 receptor group 61)	neutral red	Rhinovirus	culture	KB	-	EC50	0.121 µM

The first 2 rows once more:

compound	protein	strain or isolate	read by	agent	test	cells	dose	measure	result
c1ccc(C2CCN(c3cncc(-c4ccsc4)n3)CC2)cc1	UL97 kinase	-	-	Cytomegalovirus	target	-	1 µM	inhibition	<50%
O=S(=O)([O-])c1ccc2c(O)cc(S(=O)(=O)[O-])cc2c1	-	-	cytopathic effect	Herpes simplex virus	culture	Human conjunctiva cells	5 µg/mL	inhibition	0%